Anti-infective test results gathered from many reports (values: NIAID ChemDB through PubChem).

All rows: tests in culture; agent: Toxoplasma gondii; read-out: EC50

Blank or dashed fields: not listed here.

structure,strain,cell line,value
COc1ccc(OC)c2[nH]c(C(=O)O)cc12,RH,THP-1,0.0007 µM
Cc1c2c(cc(=O)n1C)C(=O)c1cccc(O)c1C2=O,,,1.8 µg/mL
CCOC(=O)c1cc2c(OC)ccc(OC)c2[nH]1,RH,THP-1,0.0011 µM
O=C1C(=O)c2ccccc2C(O)=C1C1CCC(c2ccc(Cl)cc2)CC1,RH atovaquone-resistant,,0.5 µM
COc1ccc(OC)c2c1ccn2CCN=[N+]=[N-],RH,THP-1,0.0034 µM
Cc1[nH]c(=O)c(C)c2c1C(=O)c1cccc(O)c1C2=O,,,1.56 µg/mL
COc1ccc(NC(=S)NC(=O)c2ccccc2COc2ccc(F)cc2)cc1,RH beta-gal,Human foreskin fibroblasts (HFF),87 µM
COC(=O)C1C=CNC2=C1C(=O)c1cccc(O)c1C2=O,,,2.47 µg/mL
COc1ccc(OC)c2c1ccn2CCBr,RH,THP-1,0.0021 µM
CC1(C)CC2=C(O1)C(=O)C=CC2=O,,THP-1,0.007 µM
[N-]=[N+]=NCCn1ccc2c(O)ccc(O)c21,RH,THP-1,0.0031 µM
CN1CCC(c2cc(-c3ccncc3)c(-c3ccc(F)cc3)[nH]2)CC1,ET-PKG FLAG T770Q,,2.9 µM
CC1(C)CC2=C(O1)C(=O)C=C(Br)C2=O,,THP-1,0.0032 µM
COc1cccc2c1C(=O)C=C(N(C)C)C2=O,,,0.92 µg/mL
CC1(C)CC2=C(O1)C(=O)c1cc3ncsc3cc1C2=O,,THP-1,0.0009 µM
O=C1C=C(Br)C(=O)c2ccccc21,,,1.28 µg/mL
CC1(C)Cc2cccc(O)c2O1,,THP-1,0.0041 µM
O=C(NC(=S)Nc1cccc([N+](=O)[O-])c1)c1ccccc1COc1ccc(Cl)cc1,RH beta-gal,Human foreskin fibroblasts (HFF),118 µM
O=C1c2ccccc2C(=O)c2cc3ccccc3cc21,,,0.42 µg/mL
O=C(NC(=S)Nc1ccc(Cl)cc1)c1ccccc1COc1ccc(F)cc1,RH beta-gal,Human foreskin fibroblasts (HFF),63 µM
COC(=O)C1C=CNC2=C1C(=O)c1c(OC)cccc1C2=O,,,1.25 µg/mL

Repeating the first 2 entries:

structure | strain | cell line | value
COc1ccc(OC)c2[nH]c(C(=O)O)cc12 | RH | THP-1 | 0.0007 µM
Cc1c2c(cc(=O)n1C)C(=O)c1cccc(O)c1C2=O |  |  | 1.8 µg/mL

Neighbouring rows are from separate reports. ECn is the concentration giving n% inhibition of infection, replication or growth.